Assay results as given in patent publication US5589335A, “Hybridization promotion reagents” (Amoco Corporation, priority 1994, dated 1996).

System: 35-nucleotide oligomer pairs #855/dA112-730 and #853/dA125-854 (E. coli rRNA sequences)
Assay: DNA:DNA oligomer hybrid melting

N=C(N)N [GuSCN, Guanidinium thiocyanate]
difference in the Td's of the two pairs of oligomers (37%-GC vs 66%-GC): 15 °C | Dissociation Temperature of DNA:DNA hybrid (GC-content 37%): 39 °C | Dissociation Temperature of DNA:DNA hybrid (GC-content 66%): 54 °C and 53 °C

Several values for one entry are separate records, joined by “and”; a condition that tells them apart may be missing. Equal values may be shown once.
